The results in this text go back to PMC6070888.

Protein sequences can lack the tags named with them.

In the data set the target is T1, ZafA ZF3-6 (Aspergillus fumigatus) (UniProt Q4WT96).
T1 sequence (looked up): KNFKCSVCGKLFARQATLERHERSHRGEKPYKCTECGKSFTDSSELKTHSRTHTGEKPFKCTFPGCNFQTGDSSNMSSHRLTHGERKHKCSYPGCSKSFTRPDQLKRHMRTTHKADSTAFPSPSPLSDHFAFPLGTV
Put plainly: EMSA. As to conditions: two shift steps, weaker than PzafA/PzrfC; EMSA buffer 25 mM Tris-HCl pH 8, 50 mM KCl, 1 mM MgCl2, 12.5% glycerol, 1 mM DTT, 0.2 ug BSA; protein dialyzed in buffer with 10 uM ZnCl2; 30 C; recombinant protein; residues 434-570. For orientation: A gel shift assay detects complexes by their altered migration in electrophoresis.

Turning to “TCGGACATAACGAACGACTCATTGGGGATCGCAGAATACCTGCTTGCCTGCTGGGTTTCTTGCCTTGCCACCAAGGTCCTCAATTGCGGATTCAAAATCCCTGCTACTGCGTTAACTGCGAGCGATCACACGACAGTCAAGCCTCTGACCTCGTTCTTATCACAGGCTTAGAAGTCTTAGTACTCAGCCTAAGTGAATCCTGTAGGGACCTTGAGGATCGTGATTTGTATTTTCCCACAGCTTGATCCAAGGGAGT (double strand) [PzrfB 256 bp EMSA fragment]”, the binding result is given as “binds”.
